{
  "sequences": {"note": "The chains behind the UniProt entries cited, without tags or fusion partners. Residues count along the entry.", "UniProt P58335, 40-217": "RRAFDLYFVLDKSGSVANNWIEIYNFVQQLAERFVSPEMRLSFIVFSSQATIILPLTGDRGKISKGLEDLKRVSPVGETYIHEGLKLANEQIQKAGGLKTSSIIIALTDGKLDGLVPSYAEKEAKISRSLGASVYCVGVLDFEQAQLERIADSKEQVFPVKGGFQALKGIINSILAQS"},
  "source": "paper PMC3066103",
  "origin": "cited, not measured here",
  "biological_target": "CMG-2 VWA domain (Homo sapiens) (UniProt P58335)",
  "data": [
    {"substance": "protective antigen (PA) (from UniProt P13423)", "values": [
      {"measurement": "Kd", "value": 0.2, "unit": "nM"}
    ]}
  ]
}
